Molecular target: sheep prion protein (UniProt P23907)

enzyme composition B for comparison (containing keratinase derived from Bacillus licheniformis PWD-1)
digestion of pathogenic prion protein in 1% brain homogenate, Western blot: the pathogenic prion protein was not digested at any concentration

Source: patent US20060134092
